Laboratory results: PubChem BioAssay AID504761 (Drosophila RNAi Screening Center, 2011)

Screen: 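Insect host genes that dengue virus relies on to spread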 (primary screen)
System: D.Mel-2 cells from Drosophila
Knock-down reagent: long dsRNA against Drosophila genes
Challenge: infection with dengue virus type 2; dose and infection time not stated
Measurement: 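Per well on two replicate plates, imaging gave the percent of cells positive for viral envelope protein, ranked by infection, and a nuclear count of cells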
Scale: infection score: higher = more virus-infected cells; cell count: higher = more cells in the well
Active means: 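Very low infection ranking in both replicate wells (chance probability at most 0.065), then a retest showing infection dropped 1.5-fold or more at p below 0.05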
Meaning of the calls: active = confirmed: knock-down lowers infection; inactive = not picked or not confirmed
The deposit covers about 22,000 reagents; below is a random part of those that have a named target and a result. Over the whole deposit, 116 (0.52%) got an active call. 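Calls depend on retest data that are not deposited; infection was ranked per plate without normalising between plates; the unit of the infection score is not given.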 Raw values are not corrected between plates. The numbers tell different reagents against one gene apart. Not given: the amount of reagent, the time to read-out.

Knock-down of CG15471 #1 gave: infection score, replicate 1 = 5.1; infection score, replicate 2 = 20.7; cell count, replicate 1 = 960; cell count, replicate 2 = 5799; inactive.
Against CG15471 #2, the values are infection score, replicate 1 = 2.68; infection score, replicate 2 = 2.58; cell count, replicate 1 = 5682; cell count, replicate 2 = 5934; inactive.
For CG15522 #1, the values are infection score, replicate 1 = 5.5; infection score, replicate 2 = 5.67; cell count, replicate 1 = 3037; cell count, replicate 2 = 6776; inactive.
After knock-down of CG15522 #2, the record shows infection score, replicate 2 = 4.26; cell count, replicate 1 = 412; cell count, replicate 2 = 1150; inactive.
CG31538 showed infection score, replicate 1 = 2.68; infection score, replicate 2 = 3.13; cell count, replicate 1 = 6409; cell count, replicate 2 = 6381; inactive.
After knock-down of CG6280, the screen gave infection score, replicate 1 = 4.26; infection score, replicate 2 = 6.95; cell count, replicate 1 = 6823; cell count, replicate 2 = 6721; inactive.
Against h-cup (heineken-cup) #1 the deposit lists infection score, replicate 1 = 16.1; infection score, replicate 2 = 12.6; cell count, replicate 1 = 6106; cell count, replicate 2 = 6226; inactive.
Silencing of h-cup (heineken-cup) #2 gave: infection score, replicate 1 = 10.3; infection score, replicate 2 = 14.6; cell count, replicate 1 = 6260; cell count, replicate 2 = 6227; inactive.
For CG10185, the values are infection score, replicate 1 = 2.98; infection score, replicate 2 = 9.12; cell count, replicate 1 = 6345; cell count, replicate 2 = 2740; inactive.
With knock-down of CG14374, the record shows infection score, replicate 1 = 5.58; infection score, replicate 2 = 14.1; cell count, replicate 1 = 4858; cell count, replicate 2 = 6786; inactive.
For Cyp12a5 (Cytochrome P450 12a5) #1, the values are infection score, replicate 1 = 1.24; infection score, replicate 2 = 1.41; cell count, replicate 1 = 6630; cell count, replicate 2 = 6589; inactive.
Depletion of Cyp12a5 (Cytochrome P450 12a5) #2 gave: infection score, replicate 1 = 7.88; infection score, replicate 2 = 0.68; cell count, replicate 1 = 5963; cell count, replicate 2 = 6212; inactive.

2 of these entries in another layout.
| predicted target | dsRNA no. | infection score, replicate 1 | infection score, replicate 2 | cell count, replicate 1 | cell count, replicate 2 | Call |
| --- | --- | --- | --- | --- | --- | --- |
| CG15471 | 2 | 2.68 | 2.58 | 5682 | 5934 | inactive |
| CG15522 | 1 | 5.5 | 5.67 | 3037 | 6776 | inactive |

The results go on.
For CG6012 the deposit lists infection score, replicate 1 = 7.32; infection score, replicate 2 = 4.9; cell count, replicate 1 = 2282; cell count, replicate 2 = 6085; inactive.
With knock-down of CG32815 #1 the results were infection score, replicate 2 = 1.31; cell count, replicate 1 = 363; cell count, replicate 2 = 761; inactive.
For CG32815 #2, the entry reads infection score, replicate 1 = 8.03; infection score, replicate 2 = 3.58; cell count, replicate 1 = 6162; cell count, replicate 2 = 6068; inactive.
NimB5 (Nimrod B5) showed infection score, replicate 1 = 19; cell count, replicate 1 = 5205; cell count, replicate 2 = 537; inactive.
Against CG42570, the entry reads infection score, replicate 1 = 4; infection score, replicate 2 = 2.48; cell count, replicate 1 = 6407; cell count, replicate 2 = 6381; inactive.
For CG9164 #1, the values are infection score, replicate 1 = 1.87; infection score, replicate 2 = 4.5; cell count, replicate 1 = 6112; cell count, replicate 2 = 6202; inactive.
After knock-down of CG9164 #2 the results were infection score, replicate 1 = 3.4; infection score, replicate 2 = 2.8; cell count, replicate 1 = 6319; cell count, replicate 2 = 6862; inactive.
For CG9164 #3, the entry reads infection score, replicate 1 = 15.4; infection score, replicate 2 = 7.95; cell count, replicate 1 = 6212; cell count, replicate 2 = 6517; inactive.
Silencing of CG7133 gave: infection score, replicate 1 = 1.82; infection score, replicate 2 = 3.28; cell count, replicate 1 = 6487; cell count, replicate 2 = 6705; inactive.
